A mixed list of measured activities; the numbers were collected in NIAID ChemDB.

Common to all: tests on isolated targets

Lines come from different laboratories, so protocols vary. Fold resistance: result on the changed form divided by that on wild type. An empty or dashed field is not shown. ICn is the concentration giving n% inhibition. Inhibition is in % at the dose shown (toxicity tests: loss of growth or viability).

compound | measure | dose | changes | strain | read by | target | species | result
Cc1[nH]nc2c1C(c1cc(Br)cc(C#N)c1)(C1CC=CC1)C(C#N)=C(N)O2 | Ki |  |  |  | absorbance | Serine hydroxymethyltransferase | Plasmodium falciparum | 0.593 µM
CN(Cc1ccc2nc(N)nc(N)c2n1)c1ccc(Cl)cc1 | IC50 |  |  | TYPE 2 |  | Dihydrofolate reductase | Cryptosporidium parvum | 9.1 µM
O=C(Nc1nnc(NCc2cccc3ccccc23)s1)c1ccc(F)cc1F | IC50 |  |  |  |  | Polymerase | Human cytomegalovirus | >25 µM
Oc1ccc(CN[C@@H]2[C@H](O)[C@@H](O)[C@H](O)[C@@H]3O[C@H]23)cc1 | inhibition | 100 µM |  |  |  | Amyloglucosidase | Aspergillus niger | 16%
O=C(O)CP(=O)(O)O | IC50 |  |  |  |  | DNA polymerase | Epstein-Barr virus | 2.3 µg/mL
Nc1nc2c(ncn2[C@H]2CO[C@@H](COP(=O)(O)OP(=O)(O)OP(=O)(O)O)O2)c(=O)[nH]1 | Ki |  | RT-Q151M K103N |  | radiometric | Reverse transcriptase | HIV | 0.035 µM
O[C@@H]1[C@@H](O)[C@@H](NCc2ccc(C(F)(F)F)cc2)[C@@H]2O[C@@H]2[C@H]1O | inhibition | 100 µM |  |  |  | Beta-D-xylosidase | Aspergillus niger | 93%
Nc1nc(N)c2cc(Cl)ccc2n1 | IC50 |  |  | TYPE 2 |  | Dihydrofolate reductase | Cryptosporidium parvum | >10 µM
O=C(O)CN1C(=O)C(=Cc2ccc(-c3cc(Cl)cc(Cl)c3)o2)SC1=S | IC50 |  |  |  |  | NS5 polymerase | Bovine viral diarrhea virus | ≤1 µM
Cc1[nH]nc2c1C(C)(c1cc(Cl)cc(Cl)c1)C(C#N)=C(N)O2 | IC50 |  |  |  | absorbance | Serine hydroxymethyltransferase | Plasmodium falciparum | 3.57 µM
Cc1ccc(N2CCN(c3cncc(-c4csc5ccccc45)n3)CC2)cc1C | inhibition | 10 µM |  |  |  | UL97 kinase | Cytomegalovirus | >15%
O=C(Nc1nnc(NC2CCCc3ccccc32)s1)c1cccc([N+](=O)[O-])c1 | IC50 |  |  |  |  | Polymerase | Human cytomegalovirus | >25 µM
CCc1sc2nc(N)nc(N)c2c1-c1ccc(Cl)cc1 | IC50 |  |  | TYPE 1 |  | Dihydrofolate reductase | Cryptosporidium parvum | >10 µM
C/C(=N\NC(=S)NNC(=S)Nc1ccc(Cl)cc1C)c1ccccn1 | IC50 |  |  |  |  | Ribonucleotide reductase | Herpes simplex virus 1 | >5 µM
COc1cccc(CC2CCc3nc(N)nc(N)c3C2)c1 | IC50 |  |  | TYPE 1 |  | Dihydrofolate reductase | Cryptosporidium parvum | 1.2 µM
Cc1[nH]nc2c1C(c1cc(C#N)cc(C(F)(F)F)c1)(C1CC=CC1)C(C#N)=C(N)O2 | Ki |  |  |  | absorbance | Serine hydroxymethyltransferase | Plasmodium falciparum | 0.659 µM
CC(C)(C)NC(=O)[C@H]1N(C(=O)[C@@H](O)[C@H](Cc2ccccc2)NC(=O)[C@H](CC(N)=O)NC(=O)COc2ccc(-c3ccccc3)cc2)CSC1(C)C | inhibition | 0.05 µM |  |  |  | Protease | HIV-1 | 98%
C/C(=N\NC(=S)NNC(=S)NC12CC3CC(CC(C3)C1)C2)c1ccccn1 | IC50 |  |  |  |  | Ribonucleotide reductase | Herpes simplex virus 1 | >5 µM
Nc1nc(N)c2c(n1)CCC(Cc1cccc(OC(F)(F)F)c1)C2 | IC50 |  |  | TYPE 1 |  | Dihydrofolate reductase | Cryptosporidium parvum | 0.4 µM
Cc1ccc(N2CCN(c3cncc(-c4ccc5ccccc5c4)n3)CC2)cc1C | IC50 |  |  |  |  | UL97 kinase | Cytomegalovirus | <10 µM
CCc1ccccc1-c1nc2nc(N)nc(N)c2nc1-c1ccccc1CC | IC50 |  |  | TYPE 1 |  | Dihydrofolate reductase | Cryptosporidium parvum | >10 µM
CC(C)(C)NC(=O)[C@H]1N(C(=O)[C@@H](O)[C@H](Cc2ccccc2)NC(=O)[C@H](CC(N)=O)NC(=O)C/C=C/c2ccccc2)CSC1(C)C | inhibition | 0.05 µM |  |  |  | Protease | HIV-1 | 96.3%
COc1ccc(OC)c(NCc2cnc3nc(N)nc(N)c3n2)c1 | IC50 |  |  | TYPE 2 |  | Dihydrofolate reductase | Cryptosporidium parvum | 3.2 µM
CCOc1ccc(-c2cncc(N3CCN(c4ccccc4)CC3)n2)cc1 | IC50 |  |  |  |  | UL97 kinase | Cytomegalovirus | <10 µM
Nc1nc(N)c2c(n1)CCC(Cc1ccc(OC(F)(F)F)cc1)C2 | IC50 |  |  | TYPE 2 |  | Dihydrofolate reductase | Cryptosporidium parvum | 0.53 µM
CC(C)C(=O)N[C@H]1C([C@H](C)[C@@H](O)CO)OC(C(=O)O)=C[C@@H]1N=[N+]=[N-] | IC50 |  |  | TYPE 3 |  | Neuraminidase | Parainfluenza virus | 20 µM
Cc1[nH]nc2c1C(c1cc(Cl)cc(C#N)c1)(C1CCC1)C(C#N)=C(N)O2 | Ki |  |  |  | absorbance | Serine hydroxymethyltransferase | Plasmodium falciparum | 0.349 µM
Clc1cc(CN2CCCNCCNCCCNCC2)cc(Cl)n1 | fold resistance |  | CXCR4-H113A |  |  | CXCR4 |  | 4.8
O=c1[nH]cnc2c1ncn2[C@@H]1O[C@H](CO)[C@@H](O)[C@H]1O | inhibition | 100 µM |  |  |  | DHPS | Pneumocystis carinii | 0%
C/C(=N\NC(=S)NNC(=S)NCCN1CCOCC1)c1ccccn1 | IC50 |  |  |  |  | Ribonucleotide reductase | Herpes simplex virus 1 | >5 µM
Oc1cc(O)c2c(c1)O[C@H](c1cc(O)c(O)c(O)c1)[C@@H](O)C2 | inhibition | 12.5 µg/mL |  |  |  | DNA polymerase | Epstein-Barr virus | 88.1%
O[C@@H]1[C@@H](O)[C@@H](NCc2ccc(-c3ccncc3)cc2)[C@H]2O[C@H]2[C@H]1O | inhibition | 100 µM |  |  |  | Beta-D-xylosidase | Aspergillus niger | 0%
CC(C)(C)OC(=O)CCNc1nnc(NC(=O)c2ccc3c(c2)C(=O)OC3=O)s1 | IC50 |  |  |  |  | Polymerase | Human cytomegalovirus | >25 µM
CC[C@@H](C)[C@H](NC(=O)[C@@H]1CCCN1C(=O)[C@@H](O)[C@H](CC1CCCCC1)NC(=O)[C@H](CC(N)=O)NC(=O)COc1cccc2ccccc12)C(=O)N[C@H](C(N)=O)C(C)C | inhibition | 5 µM |  |  |  | Protease | HIV-1 | 99.5%
CCCCCCCCCCCCC/C=C/[C@@H](O)[C@H](CO[C@@H]1O[C@H](CO)[C@H](O)[C@H](OS(=O)(=O)O)[C@H]1O)NC(=O)CCCCCCCCCCCCCCCCCCCCCCC | inhibition | 200 µM |  | Influenza A/Yamanashi/2/77 (H3N2) |  | Sialidase | Influenza A virus | 94.1%
Cc1ccc(-c2cncc(N3CCN(c4ccccc4F)CC3)n2)cc1 | IC50 |  |  |  |  | UL97 kinase | Cytomegalovirus | <100 µM
Cc1[nH]nc2c1C(c1cc(Cl)cc(-c3ccc(C(=O)OCc4ccccc4)cc3)c1)(C1CCC1)C(C#N)=C(N)O2 | IC50 |  |  |  | absorbance | Serine hydroxymethyltransferase | Plasmodium falciparum | 1.96 µM
O=C(CCCCCl)Nc1nnc(NCCc2c[nH]c3ccccc23)s1 | IC50 |  |  |  |  | Polymerase | Human cytomegalovirus | >25 µM
O=C(O)c1ccc(N2C(=O)C(=Cc3ccc(-c4ccccc4C(F)(F)F)o3)SC2=S)cc1 | IC50 |  |  |  |  | NS5 polymerase | Bovine viral diarrhea virus | ≤1 µM
C/C(=N\NC(=S)NNC(=S)Nc1cccc(C)c1)c1ccccn1 | IC50 |  |  |  |  | Ribonucleotide reductase | Herpes simplex virus 1 | >5 µM
COc1ccccc1N1CCN(c2cncc(-c3ccc(F)c(Cl)c3)n2)CC1 | inhibition | 10 µM |  |  |  | UL97 kinase | Cytomegalovirus | >15%
CC(C)(C)NC(=O)[C@H]1N(C(=O)[C@@H](O)[C@H](Cc2ccccc2)NC(=O)[C@H](CC(N)=O)NC(=O)COc2ccccc2Cl)CSC1(C)C | inhibition | 0.05 µM |  |  |  | Protease | HIV-1 | 97.3%
O=C(O)CCN1C(=O)C(=Cc2ccc(-c3ccco3)o2)SC1=S | IC50 |  |  |  |  | NS5 polymerase | Bovine viral diarrhea virus | ≤1 µM
C/C(=N\NC(=S)NNC(=S)NC(=O)c1ccccc1)c1ccccn1 | IC50 |  |  |  |  | Ribonucleotide reductase | Herpes simplex virus 1 | >5 µM
O=C(O)c1ccc(N2C(=O)C(=Cc3ccc(-c4cc(Cl)ccc4Cl)o3)SC2=S)cc1 | IC50 |  |  |  |  | NS5 polymerase | Bovine viral diarrhea virus | ≤1 µM
Nc1nc(N)c2c(n1)CCCc1cc(Cl)c(Cl)cc1-2 | IC50 |  |  | TYPE 2 |  | Dihydrofolate reductase | Cryptosporidium parvum | >10 µM
Oc1ccc(CN[C@@H]2[C@H](O)[C@@H](O)[C@H](O)[C@H]3O[C@@H]23)cc1 | Ki |  |  |  |  | Beta-D-xylosidase | Aspergillus niger | 48 µM
Nc1nc2c(ncn2[C@H]2CC[C@@H](COP(=O)(O)OP(=O)(O)OP(=O)(O)O)O2)c(=O)[nH]1 | IC50 |  | RT-V60T |  | nucleotide incorporation | Reverse transcriptase | HIV | 0.036 µM
COc1ccccc1NC(=S)NNC(=S)N/N=C(\C)c1ccccn1 | IC50 |  |  |  |  | Ribonucleotide reductase | Herpes simplex virus 1 | >5 µM

6 of the rows above, restated:

compound | measure | dose | changes | strain | read by | target | species | result
COc1ccccc1N1CCN(c2cncc(-c3ccc(F)c(Cl)c3)n2)CC1 | inhibition | 10 µM |  |  |  | UL97 kinase | Cytomegalovirus | >15%
CCc1sc2nc(N)nc(N)c2c1-c1ccc(Cl)cc1 | IC50 |  |  | TYPE 1 |  | Dihydrofolate reductase | Cryptosporidium parvum | >10 µM
Cc1ccc(-c2cncc(N3CCN(c4ccccc4F)CC3)n2)cc1 | IC50 |  |  |  |  | UL97 kinase | Cytomegalovirus | <100 µM
O=C(Nc1nnc(NCc2cccc3ccccc23)s1)c1ccc(F)cc1F | IC50 |  |  |  |  | Polymerase | Human cytomegalovirus | >25 µM
CCCCCCCCCCCCC/C=C/[C@@H](O)[C@H](CO[C@@H]1O[C@H](CO)[C@H](O)[C@H](OS(=O)(=O)O)[C@H]1O)NC(=O)CCCCCCCCCCCCCCCCCCCCCCC | inhibition | 200 µM |  | Influenza A/Yamanashi/2/77 (H3N2) |  | Sialidase | Influenza A virus | 94.1%
O=c1[nH]cnc2c1ncn2[C@@H]1O[C@H](CO)[C@@H](O)[C@H]1O | inhibition | 100 µM |  |  |  | DHPS | Pneumocystis carinii | 0%